Pooled drug test results. Numbers come from NIAID ChemDB, via PubChem.

All rows: whole-cell or culture tests; species: HIV-1; method: p24; measure: fold resistance

Conditions beyond the fields shown may differ between rows. Fold resistance has wild type as its base.

{"smiles": "Nc1ncnc2c1ncn2[C@@H]1O[C@H](CO)C[C@@H]1F", "cells": "MT-2", "strain or isolate": "T215Y(RT-T215Y)", "mutations": "RT-T215Y", "result": "0.9"}
{"smiles": "CC(C)(C)NC(=O)[C@@H]1C[C@@H]2CCCC[C@@H]2CN1C[C@@H](O)[C@H](Cc1ccccc1)NC(=O)[C@H](CC(N)=O)NC(=O)c1ccc2ccccc2n1", "cells": "PBMC", "strain or isolate": "Clinical isolate", "mutations": "PR-L10R N37D M46I I62V L63P A71V G73S V77I V82T L90M I93L", "result": "4.2"}
{"smiles": "Cc1cn([C@H]2C[C@H](N=[N+]=[N-])[C@@H](CO)O2)c(=O)[nH]c1=O", "cells": "MT-2", "strain or isolate": "RT A62V/V75I/F77L/F116Y/Q151M", "mutations": "RT-A62V V75I F77L F116Y Q151M", "result": "162"}
{"smiles": "CC(C)c1nc(CN(C)C(=O)N[C@H](C(=O)N[C@@H](Cc2ccccc2)C[C@H](O)[C@H](Cc2ccccc2)NC(=O)OCc2cncs2)C(C)C)cs1", "cells": "PBMC", "strain or isolate": "Clinical isolate", "mutations": "PR-L10I V11I T12E I15V L19I R41K M46L L63 A71T V82A L90M", "result": ">23"}
{"smiles": "Nc1ncnc2c1ncn2CCOCP(=O)(O)O", "cells": "MT-2", "strain or isolate": "L214F(RT-L214F)", "mutations": "RT-L214F", "result": "0.9"}
{"smiles": "O=c1[nH]cnc2c1ncn2[C@H]1CC[C@@H](CO)O1", "cells": "PBMC", "strain or isolate": "Recombinant", "mutations": "RT-A62V", "result": "0.15"}
{"smiles": "C[C@H](Cn1cnc2c(N)ncnc21)OCP(=O)(O)O", "cells": "MT-2", "strain or isolate": "JF4A ddC-resistant (RT T69D)", "mutations": "RT-T69D", "result": "0.706"}
{"smiles": "Cc1cn([C@H]2C[C@H](N=[N+]=[N-])[C@@H](CO)O2)c(=O)[nH]c1=O", "cells": "MT-4", "strain or isolate": "126 BCH-189 (RT-M184V)", "mutations": "RT-M184V", "result": "0.75"}
{"smiles": "CC(C)(C)NC(=O)[C@@H]1C[C@@H]2CCCC[C@@H]2CN1C[C@@H](O)[C@H](Cc1ccccc1)NC(=O)[C@H](CC(N)=O)NC(=O)c1ccc2ccccc2n1", "cells": "MT-4", "strain or isolate": "NL4-3", "mutations": "PR-L10R M46I L63P V82T", "result": "1"}
{"smiles": "CCc1cc(NCc2nc3c(Cl)ccc(Cl)c3o2)c(=O)[nH]c1C", "cells": "MT-4", "strain or isolate": "NL4-3", "mutations": "RT-Y181C", "result": ">30"}
{"smiles": "O=c1[nH]cnc2c1ncn2[C@H]1CC[C@@H](CO)O1", "cells": "MT-2", "mutations": "RT-K103N", "result": "1.3"}
{"smiles": "CC(C)CN(C[C@@H](O)[C@H](Cc1ccccc1)NC(=O)[C@H](CC(N)=O)NC(=O)c1ccc2ccccc2n1)C(=O)NC(C)(C)C", "cells": "MT-4", "strain or isolate": "NL4-3", "mutations": "PR-M46I V82T", "result": "2"}
{"smiles": "CC(C)(C)NC(=O)[C@@H]1CN(Cc2cccnc2)CCN1C[C@@H](O)C[C@@H](Cc1ccccc1)C(=O)N[C@H]1c2ccccc2C[C@H]1O", "cells": "PBMC", "strain or isolate": "Clinical isolate", "mutations": "PR-L10I K43T M46L I54L L63P A71T V82A L90M Q92K", "result": ">76.9"}
{"smiles": "Cc1ccnc2c1NC(=O)c1cccnc1N2C1CC1", "cells": "C8166", "strain or isolate": "RF", "mutations": "RT-V106I Y188C", "result": ">3330"}
{"smiles": "Nc1ccn([C@H]2CC[C@@H](CO)O2)c(=O)n1", "cells": "MT-2", "strain or isolate": "RT P119S L214F", "mutations": "RT-P119S L214F", "result": "2.4"}
{"smiles": "Nc1ccn([C@H]2CC[C@@H](CO)O2)c(=O)n1", "cells": "MT-2", "mutations": "RT-delta67 T69G", "result": "2.2"}
{"smiles": "CC(C)CN(C[C@@H](O)[C@H](Cc1ccccc1)NC(=O)O[C@H]1CCOC1)S(=O)(=O)c1ccc(N)cc1", "cells": "PBMC", "strain or isolate": "Clinical isolate", "mutations": "PR-L10I K14R R41K M46L I54V L63P A71V V82A L90M I93L", "result": "6.4"}
{"smiles": "CC(C)CN(C[C@@H](O)[C@H](Cc1ccccc1)NC(=O)O[C@H]1CCOC1)S(=O)(=O)c1ccc(N)cc1", "cells": "MT-4", "strain or isolate": "NL4-3", "mutations": "PR-D30N", "result": "0.25"}
{"smiles": "CC(C)Nc1cccnc1N1CCN(C(=O)c2cc3cc(NS(C)(=O)=O)ccc3[nH]2)CC1", "cells": "H9", "strain or isolate": "A2(RT-L74V G190E)", "mutations": "RT-L74V G190E", "result": "48.3"}
{"smiles": "CC(C)(C)NC(=O)[C@@H]1C[C@@H]2CCCC[C@@H]2CN1C[C@@H](O)[C@H](Cc1ccccc1)NC(=O)[C@H](CC(N)=O)NC(=O)c1ccc2ccccc2n1", "cells": "C8166", "strain or isolate": "RF", "mutations": "PR-G48V L90M", "result": "28.6"}
{"smiles": "C=C(C)OC(=O)N1c2cc(Cl)ccc2NC(=S)C1(C)C", "cells": "H9", "strain or isolate": "A2(RT-L74V G190E)", "mutations": "RT-L74V G190E", "result": ">167"}
{"smiles": "Cc1cn([C@H]2C[C@H](N=[N+]=[N-])[C@@H](CO)O2)c(=O)[nH]c1=O", "cells": "PBMC", "strain or isolate": "Recombinant", "mutations": "RT-Q151M", "result": "0.02"}

2 of the rows above, restated:

smiles,cells,strain or isolate,mutations,result
Cc1cn([C@H]2C[C@H](N=[N+]=[N-])[C@@H](CO)O2)c(=O)[nH]c1=O,MT-2,RT A62V/V75I/F77L/F116Y/Q151M,RT-A62V V75I F77L F116Y Q151M,162
C[C@H](Cn1cnc2c(N)ncnc21)OCP(=O)(O)O,MT-2,JF4A ddC-resistant (RT T69D),RT-T69D,0.706